PubChem BioAssay AID1259414, Drosophila RNAi Screening Center | 2018
Assay: 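Host factors increasing or decreasing Wolbachia levels in cultured fly cells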 (primary screen). Cell system: Drosophila JW18 cells infected with Wolbachia. Reagents: long dsRNA against Drosophila genes, 0.25 µg dsRNA per well of a 384-well plate. Timing: 5 days. Challenge: cells persistently infected with Wolbachia before knock-down; no added drug. Read-out: 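Imaged fluorescence in situ signal for Wolbachia 23S rRNA per DAPI-counted host cell, given as a robust z-score within each plate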. Direction: Wolbachia per cell robust z: higher = more Wolbachia per host cell than the plate typical. Hit rule: 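Active if absolute robust z reaches 1.5 in two or more of three replicates, leaving out multi- or no-target dsRNAs, genes unexpressed in JW18 and A1 wells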.
The screen tested about 24,000 reagents; shown is a random part of those with a known target gene and a result. Of all reagents, about 1,210 (5%) were called active. 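Inactive calls also include excluded dsRNAs with several or no targets, genes unexpressed in JW18, and well A1, regardless of score.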 No sequences are given here.

With knock-down of ms(2)34Fe (male sterile (2) 34Fe) [DRSC01905] the results were Wolbachia per cell robust z, rep 1 = 0.0595; Wolbachia per cell robust z, rep 2 = -0.169; Wolbachia per cell robust z, rep 3 = -1.21; inactive.
With knock-down of CG16758 [DRSC07984], the screen gave Wolbachia per cell robust z, rep 1 = 0.43; Wolbachia per cell robust z, rep 2 = 1.33; Wolbachia per cell robust z, rep 3 = -0.044; inactive.
CG16758 [DRSC08492] gave Wolbachia per cell robust z, rep 1 = -0.732; Wolbachia per cell robust z, rep 2 = -0.614; Wolbachia per cell robust z, rep 3 = 0.0292; inactive.
Knock-down of CG16758 [DRSC28475] gave: Wolbachia per cell robust z, rep 1 = -0.148; Wolbachia per cell robust z, rep 2 = 0.601; Wolbachia per cell robust z, rep 3 = 0.724; inactive.
After knock-down of CG10274 [DRSC09716], the screen gave Wolbachia per cell robust z, rep 1 = 0.659; Wolbachia per cell robust z, rep 2 = 0.566; Wolbachia per cell robust z, rep 3 = 0.959; inactive.
Depletion of CG10274 [DRSC24792] came out at: Wolbachia per cell robust z, rep 1 = -0.694; Wolbachia per cell robust z, rep 2 = 0.187; Wolbachia per cell robust z, rep 3 = 0.135; inactive.
FucT6 (alpha1,6-fucosyltransferase) [DRSC19848] gave Wolbachia per cell robust z, rep 1 = -3.5; Wolbachia per cell robust z, rep 2 = 0.653; Wolbachia per cell robust z, rep 3 = -0.617; inactive.
With knock-down of FucT6 (alpha1,6-fucosyltransferase) [DRSC26057], the record shows Wolbachia per cell robust z, rep 1 = 1.42; Wolbachia per cell robust z, rep 2 = 0.305; Wolbachia per cell robust z, rep 3 = 0.56; inactive.
Depletion of Mst98Ca (Male-specific RNA 98Ca) [DRSC16749] came out at: Wolbachia per cell robust z, rep 1 = -0.645; Wolbachia per cell robust z, rep 2 = -1.46; Wolbachia per cell robust z, rep 3 = 0.101; inactive.
For CG42741 [DRSC04593], the entry reads Wolbachia per cell robust z, rep 1 = 1.19; Wolbachia per cell robust z, rep 2 = -1.46; Wolbachia per cell robust z, rep 3 = 0.527; inactive.
CG42741 [DRSC22045] showed Wolbachia per cell robust z, rep 1 = 1.06; Wolbachia per cell robust z, rep 2 = 0.585; Wolbachia per cell robust z, rep 3 = 0.907; inactive.
CG42741 [DRSC30003] gave Wolbachia per cell robust z, rep 1 = 0.347; Wolbachia per cell robust z, rep 2 = 0.181; Wolbachia per cell robust z, rep 3 = -0.501; inactive.
TpnC25D (Troponin C at 25D) [DRSC02965] gave Wolbachia per cell robust z, rep 1 = 0.247; Wolbachia per cell robust z, rep 2 = 0.853; Wolbachia per cell robust z, rep 3 = 0.207; inactive.
With knock-down of TpnC25D (Troponin C at 25D) [DRSC24524], the screen gave Wolbachia per cell robust z, rep 1 = 0.594; Wolbachia per cell robust z, rep 2 = 0.605; Wolbachia per cell robust z, rep 3 = -1.61; inactive.
Against sad (shadow) [DRSC16630] the deposit lists Wolbachia per cell robust z, rep 1 = 0.686; Wolbachia per cell robust z, rep 2 = -0.154; Wolbachia per cell robust z, rep 3 = -0.326; inactive.
Silencing of sad (shadow) [DRSC28569] came out at: Wolbachia per cell robust z, rep 1 = -3.15; Wolbachia per cell robust z, rep 2 = -1.21; Wolbachia per cell robust z, rep 3 = -6.4; inactive.

In a second layout: 2 of the entries above.
{"Target gene": "CG16758", "amplicon": "DRSC28475", "Wolbachia per cell robust z, rep 1": -0.148, "Wolbachia per cell robust z, rep 2": 0.601, "Wolbachia per cell robust z, rep 3": 0.724, "Outcome": "inactive"}
{"Target gene": "CG10274", "amplicon": "DRSC09716", "Wolbachia per cell robust z, rep 1": 0.659, "Wolbachia per cell robust z, rep 2": 0.566, "Wolbachia per cell robust z, rep 3": 0.959, "Outcome": "inactive"}
